Assay results: publication PMC8428568, “Discovery of re-purposed drugs that slow SARS-CoV-2 replication in human cells” (PLoS Pathogens, 2021)

Tests used:
[1] = system: SARS-CoV-2-ΔOrf7a-NLuc virus; type: cell-based
[2] = system: SARS-CoV-2-ΔOrf7a-NLuc virus; type: cell-based; remark: listed apart in the source

Question: Which “effect on replication of SARS-CoV-2-ΔOrf7a-NLuc” value [1] does the source give for “IFNA2: interferon alpha 2, previously demonstrated to reduce virus replication” here?
Answer: reduce replication of SARS-CoV-2-ΔOrf7a-NLuc in a dose dependent manner

Question: What about the “effect on virus replication” value [2] of the same substance?
Answer: little effect on virus replication
